Compound potency records, mixed from different reports. Data source: NIAID ChemDB in PubChem.

Shared fields: tests in culture; organism: Aspergillus fumigatus; read-out: MIC

Blank or dashed fields: not listed here. Rows are shuffled and stem from different studies. a–b is a range or a potency band.

smiles,strain,result
NC(=O)c1ccc(NC(=S)c2ccc(O)cc2O)cc1,,>250 µg/mL
CS(=O)(=O)C(F)(F)C(O)(Cn1cncn1)c1ccc(F)cc1F,IFM 40808,8 µg/mL
Cc1cccc(CC(=O)Nc2nc(-c3cccc(Cl)c3)cs2)c1,NCIM 902,6.25 µg/mL
CCCCCCCCC[C@@H]1CC(=O)NCC(=O)N[C@@H](CCCCNC(C)=O)C(=O)N[C@@H](C(C)C)C(=O)N1,TIMM0063,>16 µg/mL
COc1cc(O)c2c(c1)C(=O)c1c(cc3c(c1O)-c1c(cc(C)c(C(=O)NC(C)C(=O)O)c1O)[C@H](OC1OC(C)C(N(C)C=O)C(OC4OCC(O)C(O)C4O)C1O)[C@H]3O)C2=O,IAM2034,6.3 µg/mL
CCOC(=O)C1=C(C)NC(C)=C(C(=O)OCC)C1c1ccccc1Br,,>1000 µg/mL
CCC(C)n1ncn(-c2ccc(N3CCN(c4ccc(OC[C@H]5CO[C@](Cn6cncn6)(c6ccc(Cl)cc6Cl)O5)cc4)CC3)cc2)c1=O,H11-20,0.035 µg/mL
NC(=S)c1ccnc(SCc2ccc(Cl)cc2)c1,231,250 µM
O=C1C[C@@H](c2ccc(F)cc2)Cc2cc(O)cc(O)c21,Clinical isolate H237,137 µg/mL
CCCCCCCCCCC[C@@H]1CC(=O)NCC(=O)N[C@@H](CCCCN)C(=O)N[C@@H](CC(C)(C)C)C(=O)N1,TIMM0063,8 µg/mL
CCCCCOc1ccc(-c2cc(-c3ccc(C(=O)N[C@H]4C[C@@H](O)[C@@H](O)NC(=O)[C@@H]5[C@@H](O)[C@@H](C)CN5C(=O)[C@H]([C@H](O)CC(N)=O)NC(=O)[C@H]([C@H](O)[C@@H](O)c5ccc(O)c(OS(=O)(=O)O)c5)NC(=O)[C@@H]5C[C@@H](O)CN5C(=O)[C@H]([C@@H](C)O)NC4=O)cc3)no2)cc1,4 strains,≤0.0078 µg/mL
O=Cc1cc(-c2ccc([N+](=O)[O-])cc2)no1,Clinical isolates,>50 µg/mL
CCOC(=O)c1sc2cc(-c3ccc([N+](=O)[O-])cc3)oc(=O)c2c1N,AF-27,>100 µg/mL
COc1cc(O)c2c(c1)C(=O)c1c(cc3c(c1O)-c1c(cc(C)c(C(=O)NC(C)C(=O)O)c1O)[C@H](OC1OC(C)C(N(C)C(=O)c4ccccc4)C(OC4OCC(O)C(O)C4O)C1O)[C@H]3O)C2=O,IAM2034,>100 µg/mL
CC(N1CCN(c2ccc(-n3cnnn3)cc2)C1=O)[C@@](O)(Cn1cncn1)c1ccc(F)cc1F,TIMM1728,>64 µg/mL
Nc1[nH]c(=O)ncc1F,4 strains,4–32 µg/mL
CCC(C)n1ncn(-c2ccc(N3CCN(c4ccc(OC[C@H]5CO[C@](Cn6cncn6)(c6ccc(Cl)cc6Cl)O5)cc4)CC3)cc2)c1=O,NCIM 902,<6.25 µg/mL
CCCCCOc1ccc(-c2cc(-c3ccc(C(=O)N[C@H]4C[C@@H](O)[C@@H](O)NC(=O)[C@@H]5[C@@H](O)[C@@H](C)CN5C(=O)[C@H]([C@H](O)CC(N)=O)NC(=O)[C@H]([C@H](O)[C@@H](O)c5ccc(O)c(OS(=O)(=O)O)c5)NC(=O)[C@@H]5C[C@@H](O)CN5C(=O)[C@H]([C@@H](C)O)NC4=O)cc3)no2)cc1,,0.0078 µg/mL
CC(/C=C/C=C(\C)C(O)C(C)C(=O)O[C@H]1C[C@@H](C)C=C2C=C[C@]3(C)O[C@@H](O)CC(=O)[C@]3(C)[C@H]21)=C\C=C\C(=O)O,AC3448,50 µg/mL
Cc1onc(-c2ccc(F)cc2)c1C=O,Clinical isolates,25 µg/mL
Cc1ccc(F)cc1NC(=S)c1ccc(O)cc1O,,125 µg/mL
CCOC(=O)C1=C(C)NC(C)=C(C(=O)OCC)C1c1ccc(OC)cc1,,15.62 µg/mL
COc1ccc(CSc2cc(C(N)=S)ccn2)cc1,231,125 µM
Cc1c(Cl)cccc1NC(=S)c1ccc(O)cc1O,,62.5 µg/mL
CS(=O)(=O)C(F)(F)[C@](O)(Cn1cncn1)c1ccc(F)cc1F,IFM 40808,8 µg/mL
Cc1onc(-c2ccccc2)c1C=O,Clinical isolates,50 µg/mL
CCC(CC)n1ncn(-c2ccc(N3CCN(c4ccc(OC[C@@H]5CO[C@@](Cn6cncn6)(c6ccc(F)cc6F)C5)cc4)CC3)cc2)c1=O,H11-20,≤0.018 µg/mL
Cc1cccc(CSc2cc(C(N)=S)ccn2)c1,231,125 µM
Cc1cc(O)ccc1NC(=S)c1ccc(O)cc1O,,500 µg/mL
CCCCCCCCCCC[C@@H]1CC(=O)NCC(=O)N[C@@H](CCCCN)C(=O)N[C@@H](CC2CCCCC2)C(=O)N1,TIMM0063,64 µg/mL
CC[C@@]1(O)C[C@H](O[C@H]2C[C@H](N(C)C)[C@H](O[C@H]3C[C@H](O)[C@H](O[C@H]4CCC(=O)[C@H](C)O4)[C@H](C)O3)[C@H](C)O2)c2c(cc3c(c2O)C(=O)c2c(O)cccc2C3=O)[C@H]1C(=O)OC,NCPF 2010,>100 µM
Oc1ccc(C(=S)Nc2ccccc2Cl)c(O)c1,,62.5 µg/mL
CCCCCCCCC[C@@H]1CC(=O)NCC(=O)N[C@@H](CCCCNCCC)C(=O)N[C@@H](C(C)C)C(=O)N1,TIMM0063,>128 µg/mL
CCOC(=O)c1sc(SC)cc1-c1ccc(Cl)cc1,AF-27,>100 µg/mL
CCOC(=O)C1=C(C)NC(C)=C(C(=O)OCC)C1c1cccc(Cl)c1,,>1000 µg/mL
COc1cc(O)c2c(c1)C(=O)c1c(cc3c(c1O)-c1c(cc(C)c(C(=O)NC(C)C(=O)O)c1O)[C@H](OC1OC(C)C(N(C)CC(N)=O)C(OC4OCC(O)C(O)C4O)C1O)[C@H]3O)C2=O,IAM2034,6.3 µg/mL
COC(=O)C1=C(C)NC(C)=C(C(=O)OC)C1c1ccc(OC)cc1,,31.25 µg/mL
C[C@H]1[C@H](O)[C@@H](C)/C=C/C=C/C=C/C=C/C=C/C=C/C=C/[C@H](O[C@@H]2O[C@H](C)[C@@H](O)[C@H](N)[C@@H]2O)C[C@@H]2O[C@](O)(C[C@@H](O)C[C@@H](O)CC[C@H](O)[C@@H](O)C[C@@H](O)CC(=O)O[C@H]1C)C[C@H](O)[C@H]2C(=O)O,MF5668,0.125 µg/mL
Oc1ccc(C(=S)Nc2ccccc2Br)c(O)c1,,125 µg/mL
O=C1C[C@@H](c2cccc(O)c2)Cc2cc(O)cc(O)c21,Clinical isolate H237,>546 µg/mL
COc1cc(O)c2c(c1)C(=O)c1c(cc3c(c1O)-c1c(cc(C)c(C(=O)NC(C)C(=O)O)c1O)[C@H](OC1OC(C)C(N(C)CC(=O)O)C(OC4OCC(O)C(O)C4O)C1O)[C@H]3O)C2=O,IAM2034,6.3 µg/mL
Cc1onc(-c2cccc(Cl)c2)c1C=O,Clinical isolates,12.5 µg/mL
CCOC(=O)C1=C(C)NC(C)=C(C(=O)OCC)C1c1ccc(O)c(OC)c1,,500 µg/mL
CSc1cc(-c2ccc(Br)cc2)c(C(=O)O)s1,AF-27,>100 µg/mL
CCCCS(=O)(=O)C(F)(F)[C@](O)(Cn1cncn1)c1ccc(F)cc1F,IFM 40808,8 µg/mL
C[C@@H]([C@H](N)C(=O)N[C@H](C(=O)O)[C@H]1O[C@@H](n2ccc(=O)[nH]c2=O)[C@H](O)[C@@H]1O)[C@H](O)c1ccc(O)cn1,10AF,800 µg/mL
CSc1cc(-c2ccc(C)cc2)c(C(=O)O)s1,AF-27,>100 µg/mL
CCCCCCCCCCC[C@@H]1CC(=O)NCC(=O)N[C@@H](CCCCN)C(=O)N[C@@H](CC(C)C)C(=O)N1,TIMM0063,>128 µg/mL
COc1cccc2c1C(=O)c1c(O)c3c(c(O)c1C2=O)C[C@@](O)(C(C)=O)C[C@@H]3O[C@H]1C[C@H](N)[C@H](O)[C@H](C)O1,NCPF 2010,>100 µM
CCCCCCCCC[C@@H]1CC(=O)NCC(=O)N[C@@H](CCCCN)C(=O)N[C@@H](CCCCN)C(=O)N1,TIMM0063,>128 µg/mL
COC(=O)Cc1csc(NC(=O)Cc2ccc(C)cc2)n1,NCIM 902,12.5 µg/mL
Cc1ccc(NC(=S)c2ccc(O)cc2O)c(Cl)c1,,15.63 µg/mL
C[N+](C)(C)CCOP(=O)([O-])OCCCCCCCCCCCCCCCCCCCCCCOP(=O)([O-])OCC[N+](C)(C)C,,0.08 µg/mL
COc1cc([C@@H]2CC(=O)c3c(O)cc(O)cc3C2)ccc1F,Clinical isolate H237,304 µg/mL
Cc1ccc(C(C)C)cc1,F05,>20 µg/mL
NC(=S)c1ccnc(SCc2c(F)cccc2[N+](=O)[O-])c1,231,250 µM

A second listing of 5 rows from above:

NC(=S)c1ccnc(SCc2ccc(Cl)cc2)c1 ; strain: 231 ; result: 250 µM
COc1cc(O)c2c(c1)C(=O)c1c(cc3c(c1O)-c1c(cc(C)c(C(=O)NC(C)C(=O)O)c1O)[C@H](OC1OC(C)C(N(C)CC(=O)O)C(OC4OCC(O)C(O)C4O)C1O)[C@H]3O)C2=O ; strain: IAM2034 ; result: 6.3 µg/mL
CCCCCOc1ccc(-c2cc(-c3ccc(C(=O)N[C@H]4C[C@@H](O)[C@@H](O)NC(=O)[C@@H]5[C@@H](O)[C@@H](C)CN5C(=O)[C@H]([C@H](O)CC(N)=O)NC(=O)[C@H]([C@H](O)[C@@H](O)c5ccc(O)c(OS(=O)(=O)O)c5)NC(=O)[C@@H]5C[C@@H](O)CN5C(=O)[C@H]([C@@H](C)O)NC4=O)cc3)no2)cc1 ; strain: 4 strains ; result: ≤0.0078 µg/mL
COc1cc(O)c2c(c1)C(=O)c1c(cc3c(c1O)-c1c(cc(C)c(C(=O)NC(C)C(=O)O)c1O)[C@H](OC1OC(C)C(N(C)C(=O)c4ccccc4)C(OC4OCC(O)C(O)C4O)C1O)[C@H]3O)C2=O ; strain: IAM2034 ; result: >100 µg/mL
Cc1c(Cl)cccc1NC(=S)c1ccc(O)cc1O ; result: 62.5 µg/mL